# Assay results as given in US7078403B1, “Antiviral agents” (Biota Scientific Management Pty Ltd., priority 1999, dated 2006).
# Tested on: Enterovirus 70
# Assay: Activity on Enterovirus 70 in mammalian cell culture assay
# Type: cell-based
# Conditions: CC50 divided by EC50
row,SMILES,Activity on Enterovirus 70 SI
1,"CCO/N=C/c1ccc(OCCC2CCN(c3ccc(Cl)nn3)CC2)cc1 [Compound 1, 4-{2-[1-(6-Chloro-3-pyridazinyl)4-piperidinyl]ethoxy}benzaldehyde O-ethyloxime]",>1582
2,CC(C)S(=O)(=O)n1c(N)nc2ccc(/C(=N/O)c3ccccc3)cc21 [Enviroxime],19.35

# Tested on: Coxsackie A21
# Assay: Activity on Coxsackie A21 in mammalian cell culture assay
# Type: cell-based
# Conditions: CC50 divided by EC50
row,SMILES,Activity on Coxsackie A21 SI
1,"CCO/N=C/c1ccc(OCCC2CCN(c3ccc(Cl)nn3)CC2)cc1 [Compound 1, 4-{2-[1-(6-Chloro-3-pyridazinyl)4-piperidinyl]ethoxy}benzaldehyde O-ethyloxime]",>320000
2,CC(C)S(=O)(=O)n1c(N)nc2ccc(/C(=N/O)c3ccccc3)cc21 [Enviroxime],24.25

# Tested on: Rhinovirus Type 14
# Assay: not given
# Type: cell-based, human rhinovirus
# Conditions: CC50 divided by EC50
row,SMILES,Activity on Rhinovirus Type 14 SI
1,CCON=Cc1ccc(OCCC2CCN(c3ccc(Cl)nn3)CC2)c(OC)c1 [Compound 5],>13
2,CON=Cc1ccc(OCCC2CCN(c3ccc(C)nn3)CC2)cc1 [Compound 7],>14
3,CON=Cc1ccc(OCCC2CCN(c3ccc(Cl)nn3)CC2)cc1 [Compound 8],>13
4,CCCON=Cc1ccc(OCCC2CCN(c3ccc(Cl)nn3)CC2)cc1 [Compound 11],>13
5,C=CCON=Cc1ccc(OCCC2CCN(c3ccc(Cl)nn3)CC2)cc1 [Compound 13],>12
6,CON=Cc1ccc(OCCC2CCN(c3ccc(Cl)nn3)CC2)c(OC)c1 [Compound 33],>7
7,CCON=Cc1ccc(OCCC2CCN(c3ccc(Cl)nn3)CC2)c(C)c1 [Compound 42],>9
8,CON=Cc1ccc(OCCC2CCN(c3ccc(Cl)nn3)CC2)c(C)c1 [Compound 44],>5
9,CCON=Cc1ccc(OCCC2CCN(c3ccc(C)nn3)CC2)c(C)c1 [Compound 51],>10
10,CON=Cc1ccc(OCCC2CCN(c3ccc(C)nn3)CC2)c(C)c1 [Compound 52],>18
11,CCON=Cc1ccc(OCCC2CCN(c3ccc(C)nn3)CC2)c(O)c1 [Compound 146],>11
12,CCON=Cc1ccc(OCCC2CCN(c3nnc(C(F)(F)F)s3)CC2)cc1 [Compound 154],>9
13,"CCO/N=C/c1csc(OCCC2CCN(c3ccc(C)nn3)CC2)n1 [Compound 155, 2-(1-(6 methyl-3-pyridazinyl)-4-piperidinylethoxy)-thiazole-4-carboxaldehyde O-ethyl oxime]",>36
14,CCO/N=C/c1ccc(OCCC2CCN(c3nnc(C)s3)CC2)cc1 [Compound 158],>526
15,CCON=Cc1ccc(OCCC2CCN(c3cnc(Cl)cn3)CC2)cc1 [Compound 160],>9
16,CCO/N=C/c1ccc(OCCCCCN(C)c2ccc(Cl)nn2)cc1 [Compound 161],>14
17,CCO/N=C/c1c(C)cc(OCCC2CCN(c3ccc(C)nn3)CC2)cc1C [Compound 185],>14
18,CO/N=C/c1c(C)cc(OCCC2CCN(c3ccc(C)nn3)CC2)cc1C [Compound 186],>28
19,CCO/N=C/c1ccc(OCCC2CCN(c3ccc(C)nn3)CC2)cc1OC [Compound 187],>97

row,SMILES,Activity on Rhinovirus Type 14 SI
1,CCO/N=C/c1ccc(OCCC2CCN(c3ccc(C)nn3)CC2)cc1C [Compound 188],>311
2,CO/N=C/c1ccc(OCCC2CCN(c3ccc(C)nn3)CC2)cc1C [Compound 189],>872
3,CCON=Cc1cc(C)c(OCCC2CCN(c3ccc(C)nn3)CC2)cc1C [Compound 190],>16
4,CON=Cc1cc(C)c(OCCC2CCN(c3ccc(C)nn3)CC2)cc1C [Compound 191],>39
5,CCON=Cc1ccc(OCCC2CCN(c3ccc(C)nn3)CC2)c(C)c1C [Compound 192],>38
6,CON=Cc1ccc(OCCC2CCN(c3ccc(C)nn3)CC2)c(C)c1C [Compound 193],>32
7,CCO/N=C/c1ccc(OCCCCN(C)c2ccc(Cl)nn2)cc1 [Compound 195],>13
8,CCON=Cc1ccc(OCCC2CCN(c3cccc(C)n3)CC2)cc1 [Compound 196],>23
9,CO/N=C/c1ccc(OCCC2CCN(c3cncc(Cl)n3)CC2)cc1 [Compound 199],>2.5
10,CO/N=C/c1ccc(OCCC2CCN(c3nc4ccccc4o3)CC2)cc1 [Compound 200],>4.8
11,CCO/N=C/c1ccc(OCCC2CCN(c3nc4ccccc4o3)CC2)cc1 [Compound 201],>3.8
12,CO/N=C/c1ccc(OCCC2CCN(c3nc(OC)nc(OC)n3)CC2)cc1 [Compound 202],>1.7
13,CCO/N=C/c1ccc(OCCC2CCN(c3nc(OC)nc(OC)n3)CC2)cc1 [Compound 203],>1.7
14,CCc1cnc(N2CCC(CCOc3ccc(/C=N/OC)cc3)CC2)nc1 [Compound 204],>1.8
15,CCO/N=C/c1ccc(OCCC2CCN(c3ncc(CC)cn3)CC2)cc1 [Compound 205],>1.6
16,CO/N=C/c1ccc(OCCC2CCN(c3nc4ccccc4s3)CC2)cc1 [Compound 206],>4.3
17,CCO/N=C/c1ccc(OCCCCCOc2ccc(Cl)nn2)cc1 [Compound 209],>31
18,CCO/N=C/c1ccc(OCCC2CCN(c3cc(C)c(Cl)nn3)CC2)cc1 [Compound 212],>46
19,"Cc1cc(CCCOc2c(C)cc(-c3noc(C(F)(F)F)n3)cc2C)on1 [Pleconaril, reference compound]",>1.6
